Here are results for one molecule from US20060234971A1 (priority 2005, published 2006).

The subject of this assay is prion replication in SMB cells. As to the kind of experiment: Bioassay of prion infectivity of treated SMB cells in CD-1 Swiss mice. The settings on record: CD-1 Swiss mice (n=12) inoculated intracerebrally with SMB cells treated 7 passages with 50 μM; ±SEM; vehicle 126±1.3 days. Type of assay: in vivo, mouse.

`CC(C)[C@H](NC(=O)OCc1ccccc1)C(=O)N[C@H](C=O)Cc1ccccc1` [MDL28170, Carbobenzoxy-valinyl-phenylalaninal] came in with a mean incubation time of 170 ± 2 days.
